Data as given in patent US20200085783A1 (priority 2013, published 2020).

How the values were obtained:
[1] = PLTX pharmacokinetics, plasma concentration after s.c. administration; conditions: mice, s.c. 2 μg/kg
[2] = tested on: leukaemia cell lines (K562, JURKAT, U937 and MOLM14); assay: Apoptosis induction in leukaemia cell lines; conditions: down-regulation of BID, MCL-1, BCL-2, BCL-xL, caspase activation; data not shown
murine P388 cell lines = conditions: Quinn et al. (1974); cited from earlier work
K562 = assay: Growth inhibitory effects on leukaemia cell lines in vitro; conditions: read-out: IC50 in vitro growth inhibitory concentration by 50%
U937 = assay: as above; conditions: read-out: IC50 in vitro growth inhibitory concentration by 50%
JURKAT = assay: as above
MOLM14 = assay: as above; conditions: read-out: IC50 in vitro growth inhibitory concentration by 50%; MOLM14, 10 h
cancer cell lines = assay: MTT colorimetric assay, cancer cell line panel (mean, comparison with normal cells)
[3] = tested on: MSC (fibroblast primoculture); assay: MTT colorimetric assay, in vitro growth inhibition
NHDF (dermal fibroblast) = assay: MTT colorimetric assay, in vitro growth inhibition
[4] = tested on: human U373n glioblastoma cells; assay: Quantitative videomicroscopy
[5] = tested on: human Hs683 oligodendroglioma cells; assay: Quantitative videomicroscopy

For Palytoxin, the “maximal plasmatic concentration relative to efficient PLTX concentration on leukemic human cell lines” value [1] was 100 fold, the “time of maximal PLTX plasmatic concentration following the injection” value [1] was 1 h and the PLTX plasmatic concentration ([1]; 0.5 h) was 0.5-1^ nM. For the same substance, the PLTX plasmatic concentration ([1]; 1 h) was 3 to 5 nM, the PLTX plasmatic concentration ([1]; 3 h) was 1 to 1.5 nM and the “apoptosis in leukaemia cell lines” value [2] was “induces apoptosis”. The activity on leukaemia (murine P388 cell lines) was “only a marginal activity”, the IC50 (K562; K562, 2 h) was 0.0521 nM and the IC50 (K562; K562, 4 h) was 0.0328 nM. It also gave an IC50 (K562; K562, 6 h) of 0.0285 nM, an IC50 (K562; K562, 8 h) of 0.0249 nM and an IC50 (U937; U937, 2 h) of 0.0248 nM. The IC50 (U937; U937, 4 h) was 0.0273 nM, the IC50 (U937; U937, 6 h) was 0.014 nM and the IC50 (U937; U937, 8 h) was 0.00905 nM. The IC50 (JURKAT; read-out: IC50 in vitro growth inhibitory concentration by 50%, 2 h) was 0.0128 nM, the IC50 (JURKAT; read-out: IC50 in vitro growth inhibitory concentration by 50%, 4 h) was 0.0135 nM and the IC50 (JURKAT; read-out: IC50 in vitro growth inhibitory concentration by 50%, 6 h) was 0.00882 nM. For the same substance, the IC50 (JURKAT; read-out: IC50 in vitro growth inhibitory concentration by 50%, 8 h) was 0.00871 nM, the IC50 (MOLM14) was 0.0103 nM and the “lower sensitivity of normal cells (MSC, NHDF) than cancer cells to PLTX-mediated in vitro growth inhibition” value (cancer cell lines; normal versus cancer cells, MTT, 72 h) was 10^6. The IC50 (cancer cell lines; read-out: IC50 concentration in various cancer cell lines, various cancer cell lines) was under 1 pM, the IC50 [3] was over 10 µM and the IC50 (NHDF (dermal fibroblast)) was over 10 µM. For the same substance, the “time after treatment at which cells begin to die” value ([4]; 0.01 nM PLTX) was “about 5 h”, the “time post-treatment at which all cells die” value ([4]; 1 nM PLTX) was 3 h and the “morphological appearances of treated cells” value ([4]; 1 nM PLTX for 3 h) was “cell swelling and bubbling”. The “time after treatment at which cells began to die” value ([5]; Hs683, 0.01 nM PLTX) was “about 3 h”, the “time post-treatment at which all cells died” value ([5]; Hs683, 1 nM PLTX) was 1 h and the “morphological appearances of treated cells” value ([5]; Hs683, 1 nM PLTX for 1 h) was “cell swelling and bubbling”.

Like-named read-outs stand apart in the source and are kept apart here.
